For this data set, the target named is T1, PaSSB (Pseudomonas aeruginosa PAO1) (UniProt P40947).
T1 sequence (looked up): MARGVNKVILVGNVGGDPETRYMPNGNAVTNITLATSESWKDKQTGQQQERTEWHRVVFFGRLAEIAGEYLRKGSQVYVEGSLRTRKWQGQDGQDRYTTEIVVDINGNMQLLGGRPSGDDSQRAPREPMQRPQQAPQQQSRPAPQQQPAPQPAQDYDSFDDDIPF
Nature of the data set: EMSA. The note with it: no stable complex (ND), smears indicate interaction, up to 5000 nM; 20 mM Tris-HCl pH 8.0, 100 mM NaCl, 25°C 30 min, 1.7 nM DNA, protein 0-5000 nM; native 8% PAGE in TBE at 4°C; recombinant protein; residues 1-165; label: 5' 32P; single-stranded DNA.

The comparison behind a weaker result is the experiment's own reference, which may not be listed here. Protein sequences can lack the tags named with them.

With TTTTTTTTTTTTTTTTTTTT [dT20], the binding result is recorded as “binds more weakly”.

Source of the values: article PMC4137731.
